PubChem BioAssay AID504761 – Drosophila RNAi Screening Center – 2011
Assay: 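Fly genes whose silencing reduces dengue virus type 2 infection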 (primary screen). Cell system: D.Mel-2 cells from Drosophila. Reagent: long dsRNA against Drosophila genes. Challenge: infection with dengue virus type 2; dose and infection time not stated. Read-out: 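Cells stained for dengue envelope protein and imaged; percent of infected cells per well on duplicate plates, ranked by infection, with stained nuclei counted for cell number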. Direction: infection score: higher = more virus-infected cells; cell count: higher = more cells in the well. Active means: 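Low infection ranks in the two replicates (chance level up to 0.065) followed by a retest with a 1.5-fold or larger significant decrease, p below 0.05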. Calls: active = confirmed: knock-down lowers infection; inactive = not picked or not confirmed.
In all, the deposit lists about 22,000 reagents; below is a random part of those that have a named target and a result. Over the whole deposit, 116 (0.52%) were called active. 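Calls depend on retest data that are not deposited; infection was ranked per plate without normalising between plates; the unit of the infection score is not given.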 Raw values vary from plate to plate and are shown uncorrected. A number with no mark means an inactive call. Names joined by + are all predicted targets of the reagent. Further read-outs or replicates are left out here. The record does not give: the amount of reagent, the time to read-out.

| gene | DRSC id | infection score, replicate 1 | infection score, replicate 2 | cell count, replicate 1 |
| --- | --- | --- | --- | --- |
| CG12025 | DRSC08230 | 1.82 | 4.25 | 6372 |
| kkv | DRSC12315 | 7.36 | 6.66 | 6798 |
| CG11555 | DRSC24179 | 6.45 | 10.3 | 5954 |
| CG13220 | DRSC06342 | 9.46 | 11.5 | 1733 |
| CG9592 | DRSC11078 | 0.72 | 4.11 | 5950 |
| CG5592 | DRSC10524 | 1.33 | 2.96 | 6255 |
| CG42747 | DRSC10209 | 0.71 | 4.84 | 6087 |
| CG42747 | DRSC10210 | 1.26 | 6.41 | 6261 |
| CG42747 | DRSC26113 | 2.18 | 1.5 | 6045 |
| Not1 | DRSC06787 | 3.05 | 0.69 | 3379 |
| Not1 | DRSC06794 | 13 | 15.2 | 1208 |
| ey | DRSC17173 | 9.27 | 1.19 | 4972 |
| ey | DRSC26309 | 7.16 | 3.6 | 3074 |
| Cpr67B | DRSC10373 | 4.88 | 4.54 | 6080 |
| CG34235 + CG30058 + CG34312 | DRSC22142 | 3.54 | 4.64 | 6554 |
| CG32452 | DRSC11581 | 0.73 | 2.84 | 6142 |
| CG32452 | DRSC22250 | 1.82 | 6.21 | 6085 |
| CG32452 | DRSC26705 | 1.02 | 11.2 | 6173 |
| CG40053 (retired record) | DRSC20833 | 4.08 | 7.25 | 6587 |
| CG40053 (retired record) | DRSC28469 | 4.08 | 15.4 | 1959 |
| CG40053 (retired record) | DRSC29968 | 4.89 | 6.14 | 5769 |
| Dhc1 | DRSC16503 | 0.98 | 1.72 | 6246 |
| Fas2 | DRSC17308 | 5.95 | 3.54 | 6086 |
| Fas2 | DRSC17309 | 6.77 | 3.4 | 5774 |
| Fas2 | DRSC18664 | 4.31 | 17.6 | 6443 |
| CG10949 | DRSC02112 | 4.99 | 3.01 | 6374 |
| CG10949 | DRSC27310 | 21 | 1.62 | 6650 |
| ck | DRSC03509 | 10.1 | 4.63 | 5974 |
| CG42662 + CG30080 | DRSC05571 | 3.61 | 3.33 | 5902 |
| CG7365 | DRSC10824 | 17.5 | 2.87 | 5118 |
| CG7365 | DRSC28680 | 4.61 | 11.7 | 1713 |
| TTLL5 | DRSC14181 | 5.21 | 7.89 | 5782 |
| Cyp4d21 | DRSC03305 | 2.7 | 2.1 | 6223 |
| Cyp4d21 | DRSC25622 | 2.74 | 1.15 | 6467 |
| GstE12 | DRSC04047 | 6.89 | 8.65 | 6469 |
| GstE12 | DRSC27281 | 9.49 | 15.7 | 6662 |
| Nepl13 | DRSC15632 | 7.73 | 6.15 | 3934 |
| CG13068 | DRSC09951 | 0.53 | 4.6 | 6247 |
| CG13068 | DRSC27150 | 3.51 | 10.4 | 6515 |

Laid out differently: results already given.
CG5592 [DRSC10524] | infection score, replicate 1 = 1.33; infection score, replicate 2 = 2.96; cell count, replicate 1 = 6255
CG42747 [DRSC10209] | infection score, replicate 1 = 0.71; infection score, replicate 2 = 4.84; cell count, replicate 1 = 6087
CG42747 [DRSC10210] | infection score, replicate 1 = 1.26; infection score, replicate 2 = 6.41; cell count, replicate 1 = 6261
CG42747 [DRSC26113] | infection score, replicate 1 = 2.18; infection score, replicate 2 = 1.5; cell count, replicate 1 = 6045
